Results of unrelated studies side by side (data: NIAID ChemDB).

Common to all: tests in culture; species: Herpes simplex virus 2; read-out: EC50

ECn: concentration that inhibits the pathogen or its effect by n%. Neighbouring rows are from separate reports.

Nc1nc2c(ncn2CC[C@@H](O)CO)c(=O)[nH]1 ; strain or isolate: 91075 ; cells: BHK ; read by: plaque count ; result: 11 µM
O=C(NCc1ccc(Cl)cc1)c1cn2c3c(cc(CN4CCOCC4)cc3c1=O)OC(c1cccnc1)C2 ; strain or isolate: AG-3 (ACV-resistant) ; cells: HFF ; read by: plaque count ; result: 8.4 µM
CCOC(=O)c1ccc(OCCC2CCN(c3ccc(C)nn3)CC2)cc1 ; strain or isolate: HGP ; cells: KB ; read by: virus yield ; result: 0.0023 µM
[O-][n+]1onc2ncnc(N3CC[N+]4(CC3)CC[N+]3(CCN(c5ncnc6no[n+]([O-])c56)CC3)CC4)c21 ; strain or isolate: US ; cells: GMK ; read by: plaque count ; result: 20.4 µM
Nc1nc2c(ncn2[C@@H]2C[C@H](CO)[C@H]2CO)c(=O)[nH]1 ; strain or isolate: 186 ; cells: WI-38 ; read by: plaque count ; result: 0.04 µM
CCc1cn([C@@H]2S[C@H](CO)[C@@H](O)[C@@H]2F)c(=O)[nH]c1=O ; strain or isolate: MS ; cells: CCRF-HSB-2 ; read by: plaque count ; result: 0.25 µM
C=CCc1cn([C@H]2C[C@H](O)[C@@H](CO)O2)c(=O)[nH]c1=O ; strain or isolate: 3345 ; cells: BHK-21 ; read by: cytopathic effect ; result: 32 µg/mL
Nc1ncnc2c1ncn2C[C@@H](CO)OCP(=O)(O)O ; strain or isolate: 186 ; cells: WI-38 ; read by: plaque count ; result: 2 µM
CC1=C[C@H](n2ccc(N)nc2=O)C[C@@]1(CO)c1ccccc1 ; cells: CCL-81 ; read by: cytopathic effect ; result: >100 µg/mL
C/C=C/c1cn([C@H]2C[C@H](O)[C@@H](CO)O2)c(=O)[nH]c1=O ; strain or isolate: 333 ; cells: HELA BU ; read by: plaque count ; result: <10 µM
O=c1[nH]c(=O)n([C@@H]2O[C@H](CO)[C@@H](O)[C@@H]2O)cc1I ; strain or isolate: MS ; cells: CCRF-HSB-2 ; read by: plaque count ; result: 30.8 µM
Nc1ccn(C[C@H]2COP(=O)(O)CO2)c(=O)n1 ; strain or isolate: SR ; cells: HFF ; read by: plaque count ; result: 82.8 µM
Nc1ccn(C[C@@H](CO)OCP(=O)(O)O)c(=O)n1 ; strain or isolate: MS ; cells: HFF ; read by: plaque count ; result: 1.2 µg/mL
O=c1[nH]c(=O)n([C@H]2C[C@H](O)[C@@H](CO)O2)cc1F ; strain or isolate: 196 ; cells: PRK ; read by: cytopathic effect ; result: >40 µg/mL
CCCCCCCCCCCCCCCCCCOCCCOP1(=O)CO[C@@H](Cn2ccc(N)nc2=O)CO1 ; strain or isolate: MS ; cells: HFF ; read by: plaque count ; result: 0.2 µM
CC(=O)OC[C@H]1[C@H](COC(C)=O)[C@@H](COC(C)=O)O[C@H]1n1cnc2c(N)ncnc21 ; strain or isolate: E-196 ; cells: MEF ; read by: plaque count ; result: 227 µM
O=c1[nH]c(=O)n([C@H]2C[C@H](O)[C@@H](CO)O2)cc1/C=C/Br ; strain or isolate: MS ; cells: HELF ; read by: plaque count ; result: 10.8 µg/mL
Nc1nc(Cl)c2ncn(/C=C3/C[C@H]3CO)c2n1 ; cells: HFF ; read by: cytopathic effect ; result: 76.4 µM
O=c1[nH]c(=O)n([C@H]2C[C@H](O)[C@@H](CO)O2)cc1I ; strain or isolate: HG-52 ; cells: HELF ; read by: plaque count ; result: 6.2 µg/mL
Cn1cc(C(=O)NCc2ccc(Cl)cc2)c(=O)c2cc(CN3CCOCC3)ccc21 ; strain or isolate: 11680 (ACV-resistant) ; cells: HFF ; read by: plaque count ; result: 2.9 µM
CC(=O)OCCOCN1C=CC(=O)N(COCCOC(C)=O)S1(=O)=O ; strain or isolate: G ; cells: E6SM ; result: >400 µg/mL
COc1ccc2nc3n[nH]c(C)c3c(SCc3ccco3)c2c1 ; cells: WI-38 ; read by: plaque count ; result: 1.8 µg/mL
COC(=O)[C@H](C)NP(=O)(OC[C@H]1C/C1=C/n1cnc2c(OC)nc(N)nc21)Oc1ccccc1 ; cells: HFF ; read by: cytopathic effect ; result: 0.76 µM
C[C@@H](c1ccccc1)N(CC(=O)Nc1ccc(-c2csc(N)n2)cc1)C(=O)c1ccncc1 ; strain or isolate: VK-1 ; cells: BHK-21/C13 ; read by: plaque count ; result: 0.09 µM
Nc1nc2c(ncn2CC[C@@H](O)CO)c(=O)[nH]1 ; strain or isolate: 91075 ; cells: BHK ; read by: plaque count ; result: 11 µM
Nc1ccn(C[C@@H](CO)OCP(=O)(O)O)c(=O)n1 ; strain or isolate: G ; cells: HFF ; read by: plaque count ; result: 18 µM
Nc1nc2c(ncn2CCCCO)c(=O)[nH]1 ; strain or isolate: B4327 ; cells: VERO ; read by: plaque count ; result: 13 µM
O=c1[nH]c(=O)n([C@H]2C[C@H](O)[C@@H](CO)O2)cc1/C=C/C(F)(F)F ; strain or isolate: 333 ; cells: HELA BU ; read by: plaque count ; result: <10 µM
Nc1nc2c(ncn2C[C@]2(CO)C[C@H]2CO)c(=O)[nH]1 ; strain or isolate: 6 isolates ; cells: MRC-5 ; read by: plaque count ; result: 0.15 µg/mL
[N-]=[N+]=N[C@@H]1[C@@H](OP(=O)(O)OC[C@H]2O[C@@H](n3cnc4c(N)ncnc43)[C@H](OP(=O)(O)OCCOCn3cnc4c(=O)[nH]c(N)nc43)[C@H]2N=[N+]=[N-])[C@H](n2cnc3c(N)ncnc32)O[C@@H]1CO ; strain or isolate: 196 ; cells: PRK ; read by: cytopathic effect ; result: 1 µg/mL
Cc1cn([C@@H]2O[C@H](CO)[C@@H](O)[C@@H]2O)c(=O)[nH]c1=O ; strain or isolate: UW-268 ; cells: HELF ; read by: cytopathic effect ; result: 1 µg/mL
O=C1C=CN(COCCO)S(=O)(=O)N1COCCO ; strain or isolate: LYONS ; cells: E6SM ; result: >400 µg/mL
COC(=O)[C@H](C)NP(=O)(OC[C@H]1C/C1=C/n1cnc2c(N)nc(N)nc21)Oc1ccccc1 ; cells: HFF ; read by: cytopathic effect ; result: 21.5 µM
O=c1[nH]c(=O)n([C@H]2C[C@H](O)[C@@H](CO)O2)cc1/C=C/Br ; strain or isolate: LYONS ; cells: Primary rabbit kidney cells ; read by: cytopathic effect ; result: 1 µg/mL
CC(=O)OCCOCN1C(=N)/C(=C(\C)O)C(N)=NS1(=O)=O ; strain or isolate: LYONS ; cells: E6SM ; result: >400 µg/mL
O=c1[nH]c(=O)n([C@@H]2O[C@H](CO)[C@@H](O)[C@@H]2O)cc1/C=C/Cl ; strain or isolate: UW-268 ; cells: HELF ; read by: plaque count ; result: 8.4 µg/mL
O=C(O)CP(=O)(O)O ; strain or isolate: Heeter ; cells: MEF ; read by: plaque count ; result: 13.5 µg/mL
C/C=C/c1cn([C@H]2C[C@H](O)[C@@H](CO)O2)c(=O)[nH]c1=O ; strain or isolate: 3345 ; cells: BHK-21 ; read by: cytopathic effect ; result: 16 µg/mL
CCCCCCCC/C=C\CCCCCCCCOCCOP(=O)(O)CO[C@H](CO)Cn1ccc(N)nc1=O ; strain or isolate: SR ; cells: HFF ; read by: plaque count ; result: 0.07 µM
CC(=O)OC[C@H]1[C@H](COC(C)=O)[C@@H](CO)O[C@H]1n1cnc2c(N)ncnc21 ; strain or isolate: MS ; cells: MEF ; read by: plaque count ; result: 277 µM
C/C=C/Cc1cn([C@H]2C[C@H](O)[C@@H](CO)O2)c(=O)[nH]c1=O ; strain or isolate: 3345 ; cells: BHK-21 ; read by: cytopathic effect ; result: >100 µg/mL
CCCCCCCCCCCCOCCCOP1(=O)CO[C@@H](Cn2ccc(N)nc2=O)CO1 ; strain or isolate: MS ; cells: HFF ; read by: plaque count ; result: >1 µM
O=c1[nH]c(=O)n([C@@H]2S[C@H](CO)[C@@H](O)[C@@H]2F)cc1I ; strain or isolate: MS ; cells: CCRF-HSB-2 ; read by: plaque count ; result: 0.47 µM
Cc1cn([C@@H]2O[C@H](CO)[C@@H](O)[C@@H]2O)c(=O)[nH]c1=O ; strain or isolate: MS ; cells: HELF ; read by: plaque count ; result: 0.22 µg/mL
CCOC(=O)C1=CN(COCCOC(C)=O)S(=O)(=O)N=C1N ; strain or isolate: G ; cells: E6SM ; result: >400 µg/mL
CC1=CC(CO)(CO)C[C@H]1n1cnc2c(N)ncnc21 ; cells: CCL-81 ; read by: cytopathic effect ; result: >100 µg/mL
Nc1ncnc2c1ncn2/C=C1/C[C@H]1CO ; cells: HFF ; read by: cytopathic effect ; result: 430 µM
CCCCCCCC/C=C\CCCCCCCOCCCOP1(=O)CO[C@@H](Cn2ccc(N)nc2=O)CO1 ; strain or isolate: MS ; cells: HFF ; read by: plaque count ; result: 0.07 µM
Nc1ncnc2c1ncn2C[C@@H](CO)OCP(=O)(O)O ; strain or isolate: G ; cells: ESM ; read by: cytopathic effect ; result: 0.02 µg/mL
CCc1cn([C@H]2C[C@H](O)[C@@H](CO)O2)c(=O)[nH]c1=O ; strain or isolate: 3345 ; cells: BHK-21 ; read by: cytopathic effect ; result: 1 µg/mL

Repeating the first 5 entries:

SMILES,strain or isolate,cells,read by,result
Nc1nc2c(ncn2CC[C@@H](O)CO)c(=O)[nH]1,91075,BHK,plaque count,11 µM
O=C(NCc1ccc(Cl)cc1)c1cn2c3c(cc(CN4CCOCC4)cc3c1=O)OC(c1cccnc1)C2,AG-3 (ACV-resistant),HFF,plaque count,8.4 µM
CCOC(=O)c1ccc(OCCC2CCN(c3ccc(C)nn3)CC2)cc1,HGP,KB,virus yield,0.0023 µM
[O-][n+]1onc2ncnc(N3CC[N+]4(CC3)CC[N+]3(CCN(c5ncnc6no[n+]([O-])c56)CC3)CC4)c21,US,GMK,plaque count,20.4 µM
Nc1nc2c(ncn2[C@@H]2C[C@H](CO)[C@H]2CO)c(=O)[nH]1,186,WI-38,plaque count,0.04 µM